Compound potency records, mixed from different reports. Data source: NIAID ChemDB in PubChem.

All rows: whole-cell or culture tests; agent: Mycobacterium avium; read-out: MIC

An empty or dashed field is not shown. Neighbouring rows are from separate reports.

| smiles | setting | strain | value |
|---|---|---|---|
| Cc1ccc2nc(SCc3ccccc3F)[nH]c2c1 |  | MY330/88 | 62 µM |
| Cc1ccc2oc(=S)n(-c3ccc(F)cc3)c(=S)c2c1 | 14 d | MY330/88 | 4 µM |
| CCCCCCCOc1ccc(NC(=O)OC(C)CN2CCCCC2)cc1 |  | MY330/88 | 16 µM |
| Cc1cccc(C(N)=Nc2nc(-c3ccccn3)cc3ccccc23)c1 |  | SK-28 | 2 µg/mL |
| CCCCCOc1cccc(NC(=O)OCCN(C)C)c1 |  | MY330/88 | 62.5 µM |
| COc1ccc(C(=S)NCc2ccccc2)c(O)c1 |  | MY330/88 | 4 µg/mL |
| Cc1ccc2oc(=O)n(-c3ccc(F)cc3)c(=S)c2c1 | 14 d | MY330/88 | 4 µM |
| CCCCCCCCCCOc1ccc(NC(=O)OCC[NH+]2CCCC2)cc1 |  | MY330/88 | 16 µM |
| COc1ccc2oc(=O)n(-c3ccccc3)c(=S)c2c1 | 14 d | MY330/88 | 32 µM |
| CC(C)N=c1cc2n(-c3ccc(Cl)cc3)c3ccccc3nc-2cc1Nc1ccc(Cl)cc1 |  | 6193 | 2 µg/mL |
| Cc1ccc2nc(SCc3ccc(C(F)(F)F)cc3)[nH]c2c1 |  | MY330/88 | 62 µM |
| O=c1oc2ccc(Br)cc2c(=O)n1-c1ccc(C(F)(F)F)cc1 |  | CNCTC MY330/88 | 4 µM |
| Cc1ccc2nc(SCc3c(F)cccc3[N+](=O)[O-])[nH]c2c1 |  | MY330/88 | >125 µM |
| O=c1oc2cc(Cl)ccc2c(=O)n1-c1ccc(F)cc1 |  | CNCTC MY330/88 | 16 µM |
| Oc1cc(Br)ccc1C(=S)NCc1cccc(Br)c1 |  | MY330/88 | 4 µg/mL |
| Cc1ccc2c(=O)n(-c3ccc(Cl)c(Cl)c3)c(=O)oc2c1 |  | CNCTC MY330/88 | 8 µM |
| CC(C)(C)c1ccc(CNC(=O)c2c(O)cc(Cl)cc2Cl)cc1 |  | MY330/88 | 62.5 µg/mL |
| CCc1cc(C(N)=S)ccn1 |  | 3350-4 | 5 µg/mL |
| COc1ccc(-n2c(=O)oc3cc(Cl)ccc3c2=O)cc1 |  | CNCTC MY330/88 | 8 µM |
| Cc1ccc2nc(SCc3cccc(Br)c3)[nH]c2c1 |  | MY330/88 | 32 µM |
| CCCOc1ccc(NC(=O)OCCN(C)C)cc1 |  | MY330/88 | 250 µM |
| Cc1ccc2c(=O)n(-c3ccc(Cl)cc3)c(=O)oc2c1 |  | CNCTC MY330/88 | 8 µM |
| COc1ccc2oc(=S)n(-c3ccc(Cl)c(Cl)c3)c(=S)c2c1 | 14 d | MY330/88 | 62.5 µM |
| Cc1ccc2c(=O)n(-c3cccc([N+](=O)[O-])c3)c(=O)oc2c1 |  | CNCTC MY330/88 | 16 µM |
| Cc1ccc2nc(SCc3cccc(F)c3)[nH]c2c1 |  | MY330/88 | 62 µM |
| CCCCCCCCCCOc1cccc(NC(=O)OCCN2CCOCC2)c1 |  | MY330/88 | 16 µM |
| CCCCOc1cccc(NC(=O)OC(COCC)CN2CCCCC2)c1 |  | MY330/88 | 125 µM |
| COc1ccc2c(=O)n(-c3cccc(F)c3)c(=O)oc2c1 |  | CNCTC MY330/88 | 32 µM |
| CCCCCCCCOc1ccccc1NC(=O)OCC[NH+]1CCCC1 |  | MY330/88 | 16 µM |
| CCCCOc1ccc(NC(=O)OC(C)CN2CCCCC2)cc1 |  | MY330/88 | 125 µM |
| O=C(NCc1ccc(Br)cc1)c1cc(Cl)ccc1O |  | MY330/88 | 32 µg/mL |
| Cc1cccc(CSc2nc3ccc(C)cc3[nH]2)c1 |  | MY330/88 | 62 µM |
| CC[C@H]1OC(=O)[C@H](C)C(=O)[C@H](C)[C@@H](O[C@@H]2O[C@H](C)C[C@H](N(C)C)[C@H]2O)[C@](C)(OC)C[C@@H](C)C(=O)[C@H](C)[C@H]2N(CCCCn3cnc(-c4cccnc4)c3)C(=O)O[C@]12C |  | Isolate 1295 | 20 µg/mL |
| CCCCCCOc1cccc(NC(=O)OC(COCC)CN2CCCCC2)c1 |  | MY330/88 | 125 µM |
| Cc1ccc2oc(=S)n(-c3ccc(Cl)c(Cl)c3)c(=S)c2c1 | 14 d | MY330/88 | 8 µM |

4 of the rows above, restated:

{"smiles": "CCCCOc1cccc(NC(=O)OC(COCC)CN2CCCCC2)c1", "strain": "MY330/88", "value": "125 µM"}
{"smiles": "Cc1ccc2nc(SCc3ccccc3F)[nH]c2c1", "strain": "MY330/88", "value": "62 µM"}
{"smiles": "Cc1ccc2oc(=S)n(-c3ccc(F)cc3)c(=S)c2c1", "setting": "14 d", "strain": "MY330/88", "value": "4 µM"}
{"smiles": "CCCCCCCCOc1ccccc1NC(=O)OCC[NH+]1CCCC1", "strain": "MY330/88", "value": "16 µM"}